{
  "sequences": {"note": "Amino acid sequences for entries named in this document (tags omitted). Residues count along the entry.", "UniProt Q57ZL6, 1-327": "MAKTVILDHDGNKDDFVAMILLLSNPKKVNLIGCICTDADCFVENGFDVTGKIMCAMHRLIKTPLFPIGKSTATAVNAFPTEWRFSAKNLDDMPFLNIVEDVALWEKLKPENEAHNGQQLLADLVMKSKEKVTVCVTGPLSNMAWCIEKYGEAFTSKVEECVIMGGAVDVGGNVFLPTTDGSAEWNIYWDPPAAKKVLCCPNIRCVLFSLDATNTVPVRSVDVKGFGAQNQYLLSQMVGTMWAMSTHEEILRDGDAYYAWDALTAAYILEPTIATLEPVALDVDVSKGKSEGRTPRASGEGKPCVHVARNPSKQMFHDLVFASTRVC"},
  "source": "patent US7390890B2",
  "about": "“Inhibitors of nucleoside metabolism” (Albert Einstein College of Medicine of Yeshiva University, priority 1997, dated 2008)",
  "biological_target": "nucleoside hydrolase from Trypanosoma brucei brucei (Trypanosoma brucei brucei, UniProt Q57ZL6)",
  "settings": "read-out: Ki Values; nucleoside hydrolase T. brucei brucei; Ia average of multiple determinations, Ib, Ic, Va single determination; tested form: HCl",
  "data": [
    {"compound": "Nc1nc2c(C3NC(CO)C(O)C3O)c[nH]c2c(=O)[nH]1", "note": "(stereo not shown)", "values": [
      {"measurement": "Ki", "value": 0.9, "unit": "nM"}
    ]}
  ]
}
